Converted amounts (≈) assume the structure as drawn. Read-outs that look alike come from different tables or passages of the source.
Assays:
[1] = target: T1, CpIMPDH (Cryptosporidium parvum, UniProt Q8T6T2); test: Inhibition of CpIMPDH; settings: read-out: CpIMPDH Kiapp; S8 Table; no reference mark; Q77 single determination
[2] = test system: Mtb strain H37Rv
[3] = test system: B. anthracis; settings: S8 Table; cited from earlier work
[4] = target: T2, BaIMPDH (Bacillus anthracis, UniProt A0A6L8P2U9); test: Inhibition of BaIMPDH; format: biochemical
[5] = target: T1, CpIMPDH; settings: cited from earlier work
[6] = target: T2, BaIMPDH; settings: cited from earlier work
[7] = target: MtbIMPDH2ΔCBS (Mycobacterium tuberculosis, UniProt P9WKI7, DEL126-250/R252G); test: Inhibition of MtbIMPDH2ΔCBS (Ki,app); format: biochemical; settings: read-out: K i,app; IMP 0.5 mM, NAD+ […]; average and SD of three independent determinations unless noted (P32 n = 1; Q22, Q36 n = 2)
[8] = test system: B. anthracis; test: Antibacterial activity against B. anthracis (MIC); format: cell-based, Bacillus anthracis; settings: comparison of MIC, S8 Table
[9] = read-out: B. anthracis Ki,app, S8 Table, no reference mark
[10] = read-out: Ki,app BaIMPDH, S1 Table, column head footnote c, A68 single determination
[11] = read-out: Ki,app BaIMPDH, S2 Table, footnote b
[12] = read-out: Ki,app BaIMPDH, S3 Table, BaIMPDH data from ref 37
[13] = read-out: Ki,app BaIMPDH, S4 Table, no reference mark, footnote c = single determination (D50 unmarked)
[14] = read-out: CpIMPDH Kiapp, S8 Table, footnote b
[15] = read-out: B. anthracis Ki,app, S8 Table, footnote c

Protein sequences, listed by entry. Tags and fused reporters are not part of them.
UniProt Q8T6T2, whole entry: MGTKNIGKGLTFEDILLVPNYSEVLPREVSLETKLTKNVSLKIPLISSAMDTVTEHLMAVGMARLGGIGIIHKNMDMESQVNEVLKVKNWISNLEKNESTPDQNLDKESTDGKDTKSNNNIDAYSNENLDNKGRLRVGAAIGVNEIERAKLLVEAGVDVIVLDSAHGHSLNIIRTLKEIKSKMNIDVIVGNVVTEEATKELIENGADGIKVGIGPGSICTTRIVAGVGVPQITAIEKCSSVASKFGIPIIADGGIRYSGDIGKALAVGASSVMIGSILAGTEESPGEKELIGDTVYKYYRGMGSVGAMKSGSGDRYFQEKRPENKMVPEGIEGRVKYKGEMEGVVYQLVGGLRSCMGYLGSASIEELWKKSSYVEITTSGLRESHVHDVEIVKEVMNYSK

COc1ccc(OC(C)C(=O)Nc2ccc3oc(-c4ccncc4)nc3c2)cc1 (centres unmarked)
Ki [1]: 28 nM | M. tuberculosis MIC [2]: 5.3 µM | MIC in 7H9 media + Gua [2]: 21 ± 4 µM | MIC in 7H9 media - Gua [2]: 10.4 ± 1.8 µM (≈ 4.05 µg/mL) | MIC in GAST media + Gua [2]: 24 ± 16 µM | MIC in GAST media - Gua [2]: 5.3 ± 0.9 µM (≈ 2.06 µg/mL) | B. anthracis MIC [3]: >50 µM | Ki [4, 9]: 37 nM

CC(Oc1cccc2ccccc12)C(=O)Nc1ccc(Br)cc1 (centres unmarked)
Ki [5]: 161 nM | Ki [6, 10]: 165 nM

COc1cccc(O[C@@H](C)C(=O)Nc2ccc3oc(-c4ccncc4)nc3c2)c1OC
Ki [1]: 50 nM | Ki [7]: 620 nM | M. tuberculosis MIC [2]: 17.3 µM | MIC in 7H9 media + Gua [2]: 31 ± 7 µM | MIC in 7H9 media - Gua [2]: 22.0 ± 9.1 µM (≈ 9.23 µg/mL) | MIC in GAST media + Gua [2]: 41 ± 6 µM | MIC in GAST media - Gua [2]: 17.3 ± 4.1 µM (≈ 7.26 µg/mL) | Ki [4, 9]: 75 nM

CC(Oc1cc[n+]([O-])c2ccccc12)c1cn(-c2ccc(Cl)c(Cl)c2)nn1 (centres unmarked)
Ki [5]: 18 nM | Ki [6, 11]: 60 nM

O=C(Cn1c(-c2nccs2)nc2ccccc21)Nc1ccc(Cl)c(Cl)c1
Ki [6, 12]: 95 nM

CC(Oc1ccccc1Cl)C(=O)Nc1ccc2oc(-c3ccncc3)nc2c1 (centres unmarked)
Ki [1]: 19 nM | M. tuberculosis MIC [2]: 15.2 µM | MIC in 7H9 media + Gua [2]: 60 ± 40 µM | MIC in 7H9 media - Gua [2]: 19.1 ± 13.3 µM (≈ 7.52 µg/mL) | MIC in GAST media + Gua [2]: 38 ± 12 µM | MIC in GAST media - Gua [2]: 15.2 ± 8.2 µM (≈ 5.99 µg/mL) | B. anthracis MIC [3]: >50 µM | Ki [4, 9]: 260 nM

CC(Oc1ccnc2ccccc12)c1cn(-c2ccc(C#N)cc2)nn1 (centres unmarked)
Ki [5]: 140 nM | Ki ([4]; read-out: Ki,app BaIMPDH, S2 Table, single determination): 450 nM

CC(Oc1ccnc2ccccc12)c1cn(-c2ccc(Cl)c(Cl)c2)nn1 (centres unmarked)
Ki [5]: 20 nM

COc1cccc(NC(=O)Cc2n[nH]c(=O)c3ccccc23)c1
Ki [5]: > 5000 nM | Ki [4, 13]: 11000 nM

CC(Nc1cccc(Cl)c1Cl)C(=O)Nc1ccc2oc(-c3ccncc3)nc2c1 (racemic)
Ki [5, 14]: 2 nM | M. tuberculosis MIC [2]: 14.5 µM | MIC in 7H9 media + Gua [2]: 19 ± 0 µM | MIC in 7H9 media - Gua [2]: 14.5 ± 4.8 µM (≈ 6.2 µg/mL) | MIC in GAST media + Gua [2]: >50 µM | MIC in GAST media - Gua [2]: 14.5 ± 4.0 µM (≈ 6.2 µg/mL) | Ki [6, 15]: 13 nM

CC(=NO)c1cccc(C(C)(C)NC(=O)Nc2ccc(Cl)c(C(=O)N3CCOCC3)c2)c1
Ki ([5]; read-out: CpIMPDH Kiapp, S8 Table, footnote c): 30 nM | Ki [7]: 37 nM | M. tuberculosis MIC [2]: 14.9 µM | MIC in 7H9 media + Gua [2]: 44 ± 7 µM | MIC in 7H9 media - Gua [2]: 28.0 ± 9.0 µM (≈ 12.9 µg/mL) | MIC in GAST media + Gua [2]: >50 µM | MIC in GAST media - Gua [2]: 14.9 ± 10.0 µM (≈ 6.84 µg/mL) | fold more effective against B. anthracis than against Mtb [8]: 15-28 fold | B. anthracis MIC [3]: 1 µM | Ki [6, 15]: 170 nM

C=C(C)c1cccc(C(C)(C)NC(=O)Nc2ccc3c(c2)OCCO3)c1
Ki ([4]; read-out: Ki,app BaIMPDH, S5 Table, no reference mark): 140 nM

O=C(Cn1c(-c2nccs2)nc2ccccc21)Nc1ccc(Cl)cc1
Ki [6, 12]: 70 nM

CC(Cc1ccccc1)C(=O)Nc1ccc2oc(-c3ccncc3)nc2c1 (centres unmarked)
Ki [5]: > 5000 nM | Ki ([6]; read-out: Kiapp BaIMPDH, S7 Table, second part): > 5000 nM

CC(=NO)c1cccc(C(C)(C)NC(=O)Nc2ccc(Br)cc2)c1
Ki ([5]; read-out: Ki,app CpIMPDH, S5 Table, footnote b): 9 nM

O=C(Cn1c(-c2nccs2)nc2ccccc21)Nc1ccc2ccccc2c1
Ki [6, 12]: 15 nM

CC(Oc1ccc(Cl)cc1Cl)C(=O)Nc1ccc2oc(-c3ccccn3)nc2c1 (centres unmarked)
Ki [5, 14]: 210 nM | Ki [7]: 2000 nM | M. tuberculosis MIC [2]: 19.8 µM | MIC in 7H9 media + Gua [2]: 50 ± 40 µM | MIC in 7H9 media - Gua [2]: 25.3 ± 8.3 µM (≈ 10.8 µg/mL) | MIC in GAST media + Gua [2]: 25 ± 12 µM | MIC in GAST media - Gua [2]: 19.8 ± 14.9 µM (≈ 8.48 µg/mL)

O=C(Cn1c(-c2ccccn2)nc2ccccc21)Nc1ccc2ccccc2c1
Ki [5]: 8 nM

Clc1ccc(-n2cc(COc3ccnc4ccccc34)nn2)cc1Cl
Ki [5]: 20 nM | Ki [6, 11]: 80 nM

O=C(Cc1n[nH]c(=O)c2ccccc12)Nc1ccc(F)cc1
Ki [5]: > 5000 nM | Ki [4, 13]: 7300 nM

O=C(Cc1n[nH]c(=O)c2ccccc12)Nc1ccc(Br)c(Cl)c1
Ki [5]: 30 nM | Ki ([6]; read-out: Ki,app BaIMPDH, S4 Table, footnote b): 270 nM

O=C(Nc1ccc(Cl)cc1)C(Oc1cccc2ccccc12)C1CC1 (centres unmarked)
Ki [5]: > 5000 nM

CC(C)C(Oc1cccc2ccccc12)C(=O)Nc1ccc(Br)cc1 (centres unmarked)
Ki [5]: 400 nM | Ki [6, 10]: 138 nM

CC(Oc1ccnc2ccccc12)C(=O)Nc1ccc(Cl)cc1 (centres unmarked)
Ki [5]: 660 nM | Ki [6, 10]: 1000 nM

CC(C(=O)Nc1ccc2oc(-c3ccncc3)nc2c1)c1ccccc1 (centres unmarked)
Ki [5]: 120 nM
